{
  "source": "patent US10208083B2",
  "about": "(priority 2015, dated 2019)",
  "experiment_in_all_cases": "MTT assay, cytostatic and cytotoxic activity",
  "format_in_all_cases": "cell-based, human",
  "set-up_in_all_cases": "TGI: unit not given here",
  "settings_in_all_cases": "48 h treatment, 0.1-100 μmol/1 tested",
  "key": {"K-562": {"system": "K-562"}, "T-47D": {"system": "T-47D"}, "MCF-7": {"system": "MCF-7"}, "UWB1.289 + BRCA1": {"system": "UWB1.289 + BRCA1"}, "OVCAR-3": {"system": "OVCAR-3"}, "PC-3": {"system": "PC-3"}, "MOLT-4": {"system": "MOLT-4"}, "SKOV-3": {"system": "SKOV-3"}, "UWB1.289": {"system": "UWB1.289"}, "[1]": {"settings": "half maximal cytotoxic concentration"}},
  "data": [
    {"molecule": "O=C(O)CCOc1ccc(N(CCCl)CCCl)cc1", "values": [
      {"measurement": "GI50", "setting": "K-562; 50% growth inhibition", "value": 46, "unit": "µM"},
      {"measurement": "IC50", "setting": "K-562; [1]", "value": "> 100", "unit": "µM"},
      {"measurement": "TGI", "setting": "K-562; total (100%) growth inhibition", "value": 91},
      {"measurement": "GI50", "setting": "T-47D; 50% growth inhibition", "value": 95, "unit": "µM"},
      {"measurement": "IC50", "setting": "T-47D; [1]", "value": "> 100", "unit": "µM"},
      {"measurement": "TGI", "setting": "T-47D; total (100%) growth inhibition", "value": ">100"},
      {"measurement": "GI50", "setting": "MCF-7; 50% growth inhibition", "value": "> 100", "unit": "µM"},
      {"measurement": "IC50", "setting": "MCF-7; [1]", "value": "> 100", "unit": "µM"},
      {"measurement": "TGI", "setting": "MCF-7; total (100%) growth inhibition", "value": ">100"},
      {"measurement": "GI50", "setting": "UWB1.289 + BRCA1; 50% growth inhibition", "value": "> 100", "unit": "µM"},
      {"measurement": "IC50", "setting": "UWB1.289 + BRCA1; [1]", "value": "> 100", "unit": "µM"},
      {"measurement": "TGI", "setting": "UWB1.289 + BRCA1; total (100%) growth inhibition", "value": ">100"},
      {"measurement": "GI50", "setting": "OVCAR-3; 50% growth inhibition", "value": 56, "unit": "µM"},
      {"measurement": "IC50", "setting": "OVCAR-3; [1]", "value": "> 100", "unit": "µM"},
      {"measurement": "TGI", "setting": "OVCAR-3; total (100%) growth inhibition", "value": 92},
      {"measurement": "GI50", "setting": "PC-3; 50% growth inhibition", "value": 89, "unit": "µM"},
      {"measurement": "IC50", "setting": "PC-3; [1]", "value": "> 100", "unit": "µM"},
      {"measurement": "TGI", "setting": "PC-3; total (100%) growth inhibition", "value": ">100"},
      {"measurement": "GI50", "setting": "MOLT-4; 50% growth inhibition", "value": 31, "unit": "µM"},
      {"measurement": "IC50", "setting": "MOLT-4; [1]", "value": "> 100", "unit": "µM"},
      {"measurement": "TGI", "setting": "MOLT-4; total (100%) growth inhibition", "value": 75},
      {"measurement": "GI50", "setting": "SKOV-3; 50% growth inhibition", "value": 50, "unit": "µM"},
      {"measurement": "IC50", "setting": "SKOV-3; [1]", "value": "> 100", "unit": "µM"},
      {"measurement": "TGI", "setting": "SKOV-3; total (100%) growth inhibition", "value": ">100"},
      {"measurement": "GI50", "setting": "UWB1.289; 50% growth inhibition", "value": 20, "unit": "µM"},
      {"measurement": "IC50", "setting": "UWB1.289; [1]", "value": "> 100", "unit": "µM"},
      {"measurement": "TGI", "setting": "UWB1.289; total (100%) growth inhibition", "value": 76}
    ]}
  ]
}
